Anti-infective test results gathered from many reports (values: NIAID ChemDB through PubChem).

All rows: target-level tests; organism: HIV-1; target: Reverse transcriptase; endpoint: IC50

An empty or dashed field is not shown. Rows are shuffled and stem from different studies. ICn is the concentration giving n% inhibition. a–b is a range or a potency band.

SMILES | strain | mutations | read by | result
N#Cc1cc(Cl)cc(Oc2cc(OCc3cn(-c4ccccc4)nn3)ccc2Cl)c1 | - | Y181C | scintillation proximity | >10 µM
CCN1c2ncc(CCc3cccc4[nH]ccc34)cc2C(=O)N(C)c2cccnc21 | - | RT-Y181C | nucleotide incorporation / radiometric | <1 µM
COc1c(O)cc2oc(-c3ccc(O)cc3)cc(=O)c2c1O | - | - | - | <57.9 µg/mL
CC(C)=CCOc1cc(NC(=S)c2ccoc2C)ccc1Cl | - | RT-E138K | - | 2.1 µM
CCn1c2cc(=NN=[N-])ccc-2[n+](C)c(=O)c2cccnc21 | - | RT-Y188L | nucleotide incorporation | 7.4 µM
COc1ccc(-c2noc(COc3ccc(Cl)c(Oc4cc(Cl)cc(C#N)c4)c3)n2)cc1 | - | Y181C | scintillation proximity | 0.17 µM
CN(C)c1nc(N)nc2c1ncn2[C@H]1C[C@H](N=[N+]=[N-])[C@@H](CO)O1 | - | - | nucleotide incorporation | 23.4 µM
CCOC(=O)c1cccn1S(=O)(=O)c1cc(Cl)ccc1N | - | - | nucleotide incorporation | 0.4 µM
C=C1C(=O)O[C@@H]2C[C@@H]3[C@]4(CC[C@]5(C)[C@@H]([C@H](C)CC/C=C(\C)C=O)CC[C@@]35C)C[C@]4(CCC(=O)O)[C@H]12 | - | - | - | 17 µg/mL
CCN1c2ncc(CC(O)c3ccncc3)cc2C(=O)N(C)c2cccnc21 | - | RT-Y181C | nucleotide incorporation / radiometric | >1 µM
Nc1nc2c(ncn2[C@H]2CC[C@@H](COP(=O)(O)OP(=O)(O)OP(=O)(O)O)O2)c(=O)[nH]1 | - | RT-K65R | - | 0.08 µM
O=c1[nH]c(=O)n([C@H]2CC[C@@H](COP(=O)(O)OP(=O)(O)OP(=O)(O)O)O2)cc1CCc1ccccc1 | - | - | nucleotide incorporation / radiometric | 2 µM
CCN1c2ncc(CCOc3ccc(-c4ccc(CC(=O)O)c(C)c4)cc3C)cc2C(=O)N(C)c2cccnc21 | IIIB | - | nucleotide incorporation / radiometric | <0.05 µM
Cc1cc(C)cc(S(=O)(=O)c2c(C(=O)NCCO)[nH]c3ccc(Cl)cc23)c1 | - | RT-Y181I | nucleotide incorporation / radiometric | 6.7 µM
CC(C)c1c(Cc2ccccc2)n(COCc2ccc(/C(O)=C/C(=O)C(=O)O)cc2)c(=O)[nH]c1=O | - | - | nucleotide incorporation | 0.057 µM
O=C1OC2C(COC(=O)c3cc(O)c(O)c(O)c3)OC(OC(=O)c3cc(O)c(O)c(O)c3)C(OC(=O)c3cc(O)c(O)c4c3[C@@H]3C1=CC(=O)C(O)(O)C3(O)O4)C2OC(=O)c1cc(O)c(O)c(O)c1 | - | - | nucleotide incorporation | >20 µg/mL
CCOC(=O)c1cccn1S(=O)(=O)c1ccc2n[nH]nc2c1 | - | - | nucleotide incorporation | 9 µM
CC(C)=CCOc1cc(NC(=S)c2ccsc2C)ccc1Cl | - | RT-K103N | - | 10 µM
COc1ccc(Br)cc1CCNC(=S)Nc1nccs1 | - | - | nucleotide incorporation | 0.003 µM
CCN1c2ncc(CCOc3ccc(-n4cc(C(=O)O)nn4)cc3C)cc2C(=O)N(C)c2cccnc21 | IIIB | RT-K103N Y181C | nucleotide incorporation / radiometric | 0.05–0.1 µM
N#Cc1cc(Cl)cc(Oc2cc(Cl)ccc2OCC(=O)c2ccc(OCC(=O)O)cc2)c1 | - | - | RT activity / ELISA / absorbance | 3.4 µM
O=c1[nH]c(=O)n([C@H]2C[C@H](O)[C@@H](COP(=O)(O)OP(=O)(O)OP(=O)(O)O)O2)cc1/C=C/c1ccccc1 | - | - | nucleotide incorporation / radiometric | 1.8 µM
CCN1c2ncc(CCc3cccc(NC(N)=O)c3)cc2C(=O)N(C)c2ccc(Cl)nc21 | WT | - | nucleotide incorporation / radiometric | <1 µM
N#Cc1cc(Cl)cc(Oc2cc(OCc3nnc(-c4ccc(Cl)cc4)o3)ccc2Cl)c1 | - | Y181C | scintillation proximity | 0.091 µM
Nc1nc2c(ncn2[C@H]2CC[C@@H](COP(=O)(O)OP(=O)(O)OP(=O)(O)O)O2)c(=O)[nH]1 | - | - | nucleotide incorporation | 0.05 µM
CCCCCCCCCCCCNC(=O)Nc1c(O)c2ccc(O[C@@H]3OC(C)(C)[C@H](CO)[C@@H](OC(N)=O)[C@H]3O)c(C)c2oc1=O | - | - | radiometric | 60 µM
CCN1c2ncc(CCOc3ccc(-c4ccc(C(=O)O)cc4)cc3)cc2C(=O)N(C)c2ccc(Cl)nc21 | IIIB | RT-K103N Y181C | nucleotide incorporation / radiometric | <0.05 µM
Cc1cn([C@@H]2O[C@H](COP(=O)(O)OP(=O)(O)OP(=O)(O)O)[C@@H](O)[C@@H]2O)c(=O)[nH]c1=O | - | - | nucleotide incorporation | 4.4 µM
CCN1c2ncc(CCOc3ccc(-c4cc(C)ccn4)cc3C)cc2C(=O)N(C)c2cccnc21 | IIIB | - | nucleotide incorporation / radiometric | <0.05 µM
O=C(O)C1=C[C@@H](O)[C@@H](O)[C@H](OC(=O)c2cc(O)c(O)c(O)c2)C1 | - | - | nucleotide incorporation | >20 µg/mL
COc1cc(-c2cc(=O)c3c(O)c(OC)c(O)cc3o2)cc(O)c1OC | - | - | - | >25.5 µg/mL
Nc1ncnc2c1ncn2[C@@H]1O[C@H](COP([O-])(=S)OC2C(O)[C@@H](COP([O-])(=S)OC3C(O)[C@@H](CO)O[C@H]3n3cnc4c(N)ncnc43)O[C@H]2n2cnc3c(N)ncnc32)C(O)C1O | - | - | - | 0.5 µM
NC(=O)c1[nH]c2ccc(Br)cc2c1S(=O)(=O)N1CCCC1 | BH10 | Y181C | RT activity / radiometric | 59 µM
O=c1[nH]c(=O)n([C@H]2C[C@H](O)[C@@H](COP(=O)(O)OP(=O)(O)OP(=O)(O)O)O2)cc1/C=C/Br | - | - | nucleotide incorporation | 3.58 µM
Nc1ccn([C@@H]2CS[C@H](COP(=O)(O)OP(=O)(O)OP(=O)(O)O)O2)c(=O)n1 | - | RT-K65R | nucleotide incorporation | 2.2 µM
N#Cc1cc(Cl)cc(Oc2cc(OCc3nc(-c4ccccn4)no3)ccc2Cl)c1 | - | Y181C | scintillation proximity | 0.12 µM
O=c1ccn(COCCOP(=O)(O)OP(=O)(O)OP(=O)(O)O)c(=O)[nH]1 | - | - | nucleotide incorporation | 0.86 µM
CC(Cc1ccccc1)NC(=S)Nc1nccs1 | - | - | nucleotide incorporation | 0.45 µM
O=C(O)C1=C[C@@H](O)[C@@H](O)[C@H](OC(=O)c2cc(O)c(O)c(OC(=O)c3cc(O)c(O)c(O)c3)c2)C1 | - | - | nucleotide incorporation | >20 µg/mL

The last 3 rows once more:

O=c1ccn(COCCOP(=O)(O)OP(=O)(O)OP(=O)(O)O)c(=O)[nH]1 ; read by: nucleotide incorporation ; result: 0.86 µM
CC(Cc1ccccc1)NC(=S)Nc1nccs1 ; read by: nucleotide incorporation ; result: 0.45 µM
O=C(O)C1=C[C@@H](O)[C@@H](O)[C@H](OC(=O)c2cc(O)c(O)c(OC(=O)c3cc(O)c(O)c(O)c3)c2)C1 ; read by: nucleotide incorporation ; result: >20 µg/mL